This assay addresses N-terminal His-tagged IpgC (Shigella flexneri 5a (M90T)) (UniProt P0A2U4). Nature of the assay: SAXS.

For the substance IpaB full-length (natural protein), the stoichiometry N (IpaB per IpgC) amounted to 1.

The record behind these values is PMC8117225, “Structural Insights of Shigella Translocator IpaB and Its Chaperone IpgC in Solution” (2021).
